Taken from: PubChem BioAssay AID624099 (ICCB-Longwood, 2012)

- Purpose: 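Host factors E2 relies on to silence an HPV18 LCR reporter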 (primary screen)
- Cells: human C33A cervical carcinoma cells (HPV-negative) stably expressing BPV1 E2 and an HPV18 LCR luciferase reporter
- Reagent: siRNA pool against human genes, 40 nM
- Timing: 72 h
- Detection: 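HPV18 LCR reporter light per well, converted to plate-wise z-scores that exclude control wells, and averaged over triplicate plates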
- Direction: mean z-score and z-score: higher = stronger reporter signal, weaker E2 silencing
- Call rule: 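Mean z ≥ 2 together with z ≥ 2 in two or more of the three replicates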
The deposit covers about 21,000 reagents; shown is a random part of them. 497 of all reagents (2.4%) count as active. 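Higher z means weaker E2 silencing; only reporter increases were scored, and knock-downs that hurt cell survival may mask genuine repressor factors.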 Unmarked entries are inactive.

| mean z-score | z-score, replicate A | z-score, replicate B | z-score, replicate C | Target gene |
| --- | --- | --- | --- | --- |
| -1.93 | -1.75 | -2.13 | -1.92 | FOXL2NB |
| -0.63 | -0.61 | -0.65 | -0.64 | CENPC |
| -0.7 | -0.6 | -0.8 | -0.7 | SUSD1 |
| 0.86 | 0.8 | 0.33 | 1.44 | PRIMA1 |
| 0.63 | 0.98 | 0.3 | 0.6 | ACAT1 |
| -0.96 | -1.09 | -0.77 | -1.02 | CCDC184 |
| -1.38 | -1.49 | -1.33 | -1.33 | GPR45 |
| 0.3 | -0.32 | 0.48 | 0.74 | ATF1 |
| 0.15 | 0.12 | 0.16 | 0.18 | EDN1 |
| 0.6 | 0.96 | 0.42 | 0.41 | KCNC4 |
| 0.43 | 0.24 | 0.69 | 0.37 | KCNT2 |
| -0.46 | -0.62 | -0.53 | -0.24 | TUT4 |
| -1.27 | -1.31 | -1.25 | -1.25 | ZNF280D |
| 0.03 | 0.16 | -0.42 | 0.35 | LOC200731 (retired record) |
| 0.47 | 0.94 | 0.07 | 0.41 | EPB41L3 |
| -0.67 | -0.34 | -1.18 | -0.48 | TFAP2B |
| -0.34 | -0.42 | -0.52 | -0.06 | LOC388283 (retired record) |
| -1.59 | -1.82 | -1.2 | -1.74 | TAF2 |
| 0.49 | 0.31 | 0.69 | 0.47 | H1-9P |
| -0.24 | -0.12 | -0.35 | -0.24 | APBA2 |
| 0.11 | -0.11 | 0.32 | 0.13 | CACNB2 |
| -0.33 | -0.03 | -0.3 | -0.65 | H2AC25 |
| -0.5 | -0.48 | -0.55 | -0.46 | GLRA1 |
| -0.5 | -0.64 | -0.48 | -0.39 | TRIM36 |
| -0.31 | -0.19 | -0.06 | -0.67 | CCR1 |
| 0.47 | 0.97 | 0.12 | 0.33 | ADAMTS8 |
| -0.62 | -0.11 | -0.79 | -0.95 | GNB4 |
| -0.03 | -0.14 | -0.05 | 0.11 | SUSD3 |
| 0.06 | 0.32 | 0 | -0.15 | RNASEH1 |
| 0.42 | 0.91 | 0.33 | 0.03 | SLC71A1 |
| 0.35 | 0.49 | 0.3 | 0.24 | TTC3P1 |
| 0.07 | 0.22 | 0 | 0 | SLC35E4 |
| 1.53 | 1.72 | 1.47 | 1.4 | LOC387873 (retired record) |
| 1.02 | 1.04 | 1.11 | 0.9 | CCDC89 |
| 0.67 | 0.78 | 0.37 | 0.85 | PRAM1 |
| 1.25 | 1.48 | 0.93 | 1.34 | NLRP6 |
| -0.88 | -1.07 | -0.96 | -0.62 | ELOVL6 |
| 2.32 (active) | 2.15 | 2.62 | 2.19 | ZNF530 |
| -0.36 | -0.64 | -0.14 | -0.3 | GALNT13 |
| -1.68 | -1.88 | -1.44 | -1.71 | MPZL3 |
| 0.17 | 0.41 | -0.27 | 0.38 | SEPTIN9 |
| 1.74 | 1.68 | 1.37 | 2.18 | CELF1 |
| -0.68 | -1.03 | -0.81 | -0.19 | GJB6 |
| 1.43 | 1.03 | 1.39 | 1.86 | ACTR1A |
| -1.82 | -2.1 | -1.83 | -1.53 | UNC50 |
| -0.44 | -0.38 | -0.18 | -0.76 | FKBP8 |
| 0.44 | 0.55 | 0.41 | 0.36 | NRIP1 |
| 0.83 | 0.97 | 0.98 | 0.55 | PNMA2 |
| 0.91 | 1.28 | 0.87 | 0.59 | ZNF257 |
| -1.17 | -1.2 | -1.3 | -1.01 | MAP3K10 |
| -1.14 | -1.31 | -1.07 | -1.03 | ERCC6L2-AS1 |
| 3.25 (active) | 4.4 | 2.91 | 2.45 | LOC390566 (retired record) |
| -0.72 | -0.88 | -0.69 | -0.6 | PHGDH |
| -0.42 | -0.44 | -0.45 | -0.37 | CFAP20DC |
| -1.31 | -1.15 | -1.48 | -1.29 | GCHFR |
| -0.55 | -0.74 | -0.63 | -0.27 | LOC387903 (retired record) |
| -2.24 | -2.14 | -2.27 | -2.33 | RPS10 |
| -0.75 | -0.82 | -0.71 | -0.71 | ZFYVE26 |
| -0.62 | -0.78 | -0.56 | -0.52 | LUZP2 |
| 1.41 | 1.15 | 1.33 | 1.75 | FBXW11 |
| 0.08 | -0.27 | 0.12 | 0.38 | CRELD2 |
| -0.62 | -0.71 | -0.58 | -0.57 | MS4A7 |
| 0.11 | 0.26 | 0.08 | -0.01 | KLF14 |
| -0.32 | -0.42 | -0.25 | -0.3 | NARS2 |
| 1.64 | 1.52 | 1.61 | 1.78 | FTH1P14 |
| 0.05 | 0.19 | -0.21 | 0.16 | GPM6B |
| 1.37 | 1.45 | 0.91 | 1.74 | TSSK1B |
| -0.79 | -0.72 | -0.68 | -0.98 | NT5DC1 |
| 0.34 | 0.42 | 0.21 | 0.39 | MARCHF9 |
| 0.34 | 0.32 | 0.43 | 0.28 | COL15A1 |
| -0.28 | -0.37 | -0.48 | 0.01 | NUFIP2 |
| 1.16 | 1.01 | 1.17 | 1.3 | LOC389777 (retired record) |
| 0.51 | 0.76 | 0.52 | 0.23 | GPR85 |

Hits, of those listed so far:
| mean z-score | z-score, replicate A | z-score, replicate B | z-score, replicate C | Target gene |
| --- | --- | --- | --- | --- |
| 2.32 (active) | 2.15 | 2.62 | 2.19 | ZNF530 |
| 3.25 (active) | 4.4 | 2.91 | 2.45 | LOC390566 (retired record) |
